A mixed list of measured activities; the numbers were collected in NIAID ChemDB.

Common to all: whole-cell or culture tests; agent: HIV-1

Two numbers with a dash give a range or band. Lines come from different laboratories, so protocols vary. An empty or dashed field is not shown. ECn is the concentration giving n% inhibition of infection, replication or growth.

structure | cells | strain or isolate | endpoint | conditions | changes | read by | result
CCc1c(Cc2cc(C)cc(C)c2)n(COCC#Cc2cnccn2)c(=O)[nH]c1=O | MT-4 | IIIB | EC50 |  | K103N + Y181C | MTT | 11 µM
CC(C)n1c(=O)c(O)c2n(c1=O)C(CCO)CN(Cc1ccc(F)cc1)C2=O | MT-4 |  | EC50 |  |  | p24 | <10 µM
COc1ccc2ccc3c(c2c1)OC[C@@H](C)NC3=O | OM-10.1 |  | EC50 |  |  | p24 | 0.09 µM
Cc1cc(C#N)cc(C)c1Oc1nc(Nc2ccc(C#N)cc2)nc2sccc12 | HeLa |  | EC50 |  |  | luciferase | <0.1 µM
O=C1c2c(O)c(=O)n(CCCn3ccnc3)c(=O)n2CCN1Cc1ccc(F)cc1 | MT-4 |  | EC50 |  |  | p24 | <10 µM
CC(C)CN(C[C@@H](O)[C@H](Cc1ccccc1)NC(=O)[C@H](C(C)C)N1CC(=O)N(Cc2ccncc2)C1=O)S(=O)(=O)c1ccc(/C=N/O)cc1 | MT-4 | A17 (LPV-resistant) | EC50 |  | PR-L10F V32I M46I I47V Q68E I84V | cytopathic effect / MTT | 0.015 µM
CCCCCN1CCNC(=O)C2=C1c1cc(OC)ccc1CC2 | OM-10.1 |  | EC50 |  |  | p24 | 1.1 µM
C/C(Cl)=C/COc1cc(NC(=O)c2ccoc2C)ccc1Cl | CEM | TIBO R82913-resistant (RT K103N) | EC50 |  | RT-K103N | syncytia | 2.5 µg/mL
Cc1cc(C)c(Nc2nc(Nc3ccc(C#N)cc3)nc3ccsc23)c(C)c1 | HeLa | Y181C | EC50 |  |  | luciferase | 0.01–0.1 µM
Cc1sccc1C(=S)Nc1ccc(Cl)c(OCC=C(Cl)Cl)c1 | CEM | HEPT-resistant (RT Y188H) | EC50 |  | RT-Y188H | syncytia | 2 µg/mL
COc1ccc2c(c1)C1=C(CC2)C(=O)NCCN1Cc1cccc(Cl)c1 | OM-10.1 |  | EC50 |  |  | p24 | 0.1 µM
C[C@@H]1CCO[C@H]2Cn3cc(C(=O)NCc4ccc(F)cc4F)c(=O)c(O)c3C(=O)N12 | MT-4 |  | EC50 |  | L74F/V75I/N155H | p24 / ELISA / fluorescence | >1 µM
COc1ccc(N(C)C(=O)C(Cc2ccccc2)NC(=O)C(C)(C)CC(=O)N[C@H](Cc2ccccc2)C(=O)N(C)c2ccc(OC)cc2)cc1 | MT-2 | NL4-3 | EC50 |  |  | luciferase | 4.96 µM
Cc1ccc(-c2ccc(NC(=O)N3CCC4(CCO4)CC3)cc2)cc1 | TZM-bl | VSV-G | EC50 | pseudotyped |  | luminescence | >30 µM
C=C(Cl)COc1cc(NC(=S)c2ccsc2C)ccc1C#N | CEM | Nevirapine-resistant isolate (RT V106A) | EC50 |  | RT-V106A | syncytia | 0.2 µg/mL
CCC(C)[C@@H](C(=O)N[C@@H](Cc1ccccc1)[C@H](O)CN(CC1CCCC1)S(=O)(=O)c1ccc(/C=N/O)cc1)N1CCN(Cc2cccnc2C)C1=O | MT-4 |  | EC50 | 50% human serum |  | cytopathic effect / MTT | 0.01 µM
CCc1c(Cc2ccccc2C)n(COCC#Cc2ccc(NC(=O)C(F)(F)F)cc2)c(=O)[nH]c1=O | MT-4 | IIIB | EC50 |  | Y181C | MTT | >45 µM
Cc1cc(C(=O)N[C@@H](Cc2cc(F)cc(F)c2)C(=O)N(C)c2ccc3scnc3c2)cc(C(=O)N[C@@H](Cc2cc(F)cc(F)c2)C(=O)N(C)c2ccc3scnc3c2)c1 | MT-2 | NL4-3 | EC50 |  |  | luciferase | 0.01 µM
Cc1occc1C(=S)Nc1ccc(Cl)c(SCC=C(Cl)Cl)c1 | CEM | Pyridone-resistant (RT Y181C) | EC50 |  | RT-Y181C | syncytia | 0.13 µg/mL
CCC(C)[C@@H](C(=O)N[C@@H](Cc1ccccc1)[C@H](O)CN(CC1CCCC1)S(=O)(=O)c1ccc(/C=N/O)cc1)N1CCN(Cc2cnccc2C)C1=O | MT-4 | A17 (LPV-resistant) | EC50 |  | PR-L10F V32I M46I I47V Q68E I84V | cytopathic effect / MTT | 0.001 µM
COCc1nc(Nc2ccc(C#N)cc2)nc(Nc2c(C)cc(/C=C/C#N)cc2C)c1C(=O)NCCc1ccccn1 | MT4 CMV-EGFP | MDR | EC50 |  |  |  | 0.372 µM
COc1ccc(N(C)C(=O)[C@H](Cc2ccccc2)NC(=O)c2cccc(C(=O)N[C@@H](Cc3ccccc3)C(=O)N(C)c3ccc(OC)cc3)c2)cc1 | MT-2 | NL4-3 | EC50 |  |  | luciferase | 0.09 µM
Cc1cc(C)c(Oc2nc(Nc3ccc(C#N)cc3)nc3ccsc23)c(C)c1 | HeLa | Y181C | EC50 |  |  | luciferase | <0.01 µM
CCc1c(Cc2ccccc2C)n(COCC#CC2c3ccccc3-c3ccccc32)c(=O)[nH]c1=O | MT-4 | IIIB | EC50 |  | K103N + Y181C | MTT | >50 µM
CC(C)OC(=O)c1cc(NC(=S)OC(C)C)ccc1Cl | CEM | IIIB | EC50 |  | RT-Y188L | syncytia | >2 µM
CN(C(=O)[C@H](Cc1cc(F)cc(F)c1)NC(=O)NS(=O)(=O)N[C@@H](Cc1cc(F)cc(F)c1)C(=O)N(C)c1cnc2scnc2c1)c1cnc2scnc2c1 | MT-2 | NL4-3 | EC50 |  |  | luciferase | 8.92 µM
Cn1c(=O)c(O)c2n(c1=O)CCN(Cc1ccc(F)cc1)C2=O | MT-4 |  | EC50 |  |  | p24 | <10 µM
COc1ccc2sc3c(c2c1)SCC/C3=N\OC(C)=O | OM-10.1 |  | EC50 |  |  | p24 | 0.4 µM
COCc1nc(Nc2ccc(C#N)cc2)nc(Nc2c(C)cc(/C=C/C#N)cc2C)c1C(=O)N1CCN(CCO)CC1 | MT4 CMV-EGFP | K103N+Y101C | EC50 |  |  |  | 0.49 µM
CCc1c(Cc2cc(C)cc(C)c2)n(COCC#Cc2cccc(CO[Si](c3ccccc3)(c3ccccc3)C(C)(C)C)c2)c(=O)[nH]c1=O | MT-4 | IIIB | EC50 |  | WT | MTT | 0.6 µM
COc1ccc(N(C)C(=O)[C@H](Cc2ccccc2)NC(=O)c2cc(C(=O)N[C@@H](Cc3ccccc3)C(=O)N(C)c3ccc(OC)cc3)cc(C(C)(C)C)c2)cc1 | MT-2 | NL4-3 | EC50 |  |  | luciferase | 0.15 µM
CCc1c(Cc2cc(C)cc(C)c2)n(COCC#Cc2cc(C(F)(F)F)cc(C(F)(F)F)c2)c(=O)[nH]c1=O | MT-4 | IIIB | EC50 |  | EFV-resistant (K103R V179D P225H) | MTT | >70 µM
COCc1nc(Nc2ccc(C#N)cc2)nc(Nc2c(C)cc(/C=C/C#N)cc2C)c1C(=O)NCc1ccncc1 | MT4 CMV-EGFP | K103N + Y181C | EC50 |  |  |  | 0.0148 µM
OCCN(CCO)CCOc1nc(-c2cccs2)cc(-c2cccs2)n1 | PBMC | LAV-1 | EC50 |  |  | RT activity | 3.8 µM
CCc1c(Cc2cc(C)cc(C)c2)n(COCC#Cc2ccc(O[Si](c3ccccc3)(c3ccccc3)C(C)(C)C)cc2)c(=O)[nH]c1=O | MT-4 | IIIB | EC50 |  | WT | MTT | 1.7 µM
CCc1ncc(N(C)C(=O)[C@H](Cc2cc(F)cc(F)c2)NC(=O)CN2c3ccccc3N(CC(=O)N[C@@H](Cc3cc(F)cc(F)c3)C(=O)N(C)c3cnc(CC)nc3)S2(=O)=O)cn1 | MT-2 | NL4-3 | EC50 |  |  | luciferase | 0.18 µM
C=C(C)CN1CCNC(=O)c2sc3ccc(OCCC)cc3c21 | OM-10.1 |  | EC50 |  |  | p24 | <0.08 µM
Cc1cnc(SCCN2CCN(C)CC2)nc1-c1cc2ccccc2s1 | PBMC | LAV-1 | EC50 |  |  | RT activity | 6.5 µM
CCC(C)[C@@H](C(=O)N[C@@H](Cc1ccccc1)[C@H](O)CN(CC(C)C)S(=O)(=O)c1ccc(/C=N/O)cc1)N1CCN(Cc2cccnc2C)C1=O | MT-4 |  | EC50 | 50% human serum |  | cytopathic effect / MTT | 0.016 µM
CN(C)CCSc1nc(-c2cccs2)cc(-c2cccs2)n1 | PBMC | LAV-1 | EC50 |  |  | RT activity | 48.9 µM
CCC(C)[C@@H](C(=O)N[C@@H](Cc1ccccc1)[C@H](O)CN(CC(C)C)S(=O)(=O)c1ccc(/C=N/O)cc1)N1CCN(Cc2ccc(OC)nc2)C1=O | MT-4 | A17 (LPV-resistant) | EC50 |  | PR-L10F V32I M46I I47V Q68E I84V | cytopathic effect / MTT | 0.01 µM
COc1ccc2c(c1)C1=C(C2)C(=O)N[C@H]2CCCC[C@@H]2N1 | OM-10.1 |  | EC50 |  |  | p24 | 0.2 µM
CN1CCN(CCSc2nccc(-c3ccc(-c4cccs4)s3)n2)CC1 | PBMC | LAV-1 | EC50 |  |  | RT activity | 12.9 µM
COCc1nc(Nc2ccc(C#N)cc2)nc(Nc2c(C)cc(/C=C/C#N)cc2C)c1C(=O)N1CCCC(C(N)=O)C1 | MT4 CMV-EGFP | MDR | EC50 |  |  |  | 2.29 µM
CCCN(C(=O)[C@H](Cc1cc(F)cc(F)c1)NC(=O)CS(=O)(=O)N[C@@H](Cc1cc(F)cc(F)c1)C(=O)N(CCC)c1ccc2nccnc2c1)c1ccc2nccnc2c1 | MT-2 | NL4-3 | EC50 |  |  | luciferase | 14.97 µM
COCc1nc(Nc2ccc(C#N)cc2)nc(Nc2c(C)cc(/C=C/C#N)cc2C)c1C(=O)NCC1CCCO1 | MT4 CMV-EGFP | L1001+K103N | EC50 |  |  |  | 0.055 µM
O=C1c2c(O)c(=O)n(C3CCCCC3)c(=O)n2CCN1Cc1ccc(F)cc1 | MT-4 |  | EC95 |  |  | p24 | <10 µM
COCc1nc(Nc2ccc(C#N)cc2)nc(Nc2c(C)cc(/C=C/C#N)cc2C)c1C(=O)NCC(OC)OC | MT4 CMV-EGFP | L1001+K103N | EC50 |  |  |  | 0.0417 µM
Cc1cc(C#N)cc(C)c1Oc1nc(Nc2ccc(C#N)cc2)nc2ccsc12 | HeLa |  | EC50 |  |  | luciferase | <0.01 µM
COc1ccc(N(C)C(=O)[C@H](Cc2ccccc2)NC(=O)NS(=O)(=O)N[C@@H](Cc2ccccc2)c2nc(C)no2)cc1 | MT-2 | NL4-3 | EC50 |  |  | luciferase | 3.76 µM
COCc1nc(Nc2ccc(C#N)cc2)nc(Nc2c(C)cc(/C=C/C#N)cc2C)c1C(=O)N(C)CCN(C)C | MT4 CMV-EGFP | K103N + Y181C | EC50 |  |  |  | 0.331 µM
CC(C)=CCOc1cc(NC(=S)c2ccoc2C)ccc1Cl | CEM | IIIB | EC50 |  | RT-E138K | syncytia | 0.015 µM
CC1=C(C(=O)Nc2ccc(Cl)c(OCC=C(Cl)Cl)c2)SCCO1 | CEM | HEPT-resistant (RT Y188H) | EC50 |  | RT-Y188H | syncytia | 2 µg/mL

The last 7 rows once more:

{"structure": "O=C1c2c(O)c(=O)n(C3CCCCC3)c(=O)n2CCN1Cc1ccc(F)cc1", "cells": "MT-4", "endpoint": "EC95", "read by": "p24", "result": "<10 µM"}
{"structure": "COCc1nc(Nc2ccc(C#N)cc2)nc(Nc2c(C)cc(/C=C/C#N)cc2C)c1C(=O)NCC(OC)OC", "cells": "MT4 CMV-EGFP", "strain or isolate": "L1001+K103N", "endpoint": "EC50", "result": "0.0417 µM"}
{"structure": "Cc1cc(C#N)cc(C)c1Oc1nc(Nc2ccc(C#N)cc2)nc2ccsc12", "cells": "HeLa", "endpoint": "EC50", "read by": "luciferase", "result": "<0.01 µM"}
{"structure": "COc1ccc(N(C)C(=O)[C@H](Cc2ccccc2)NC(=O)NS(=O)(=O)N[C@@H](Cc2ccccc2)c2nc(C)no2)cc1", "cells": "MT-2", "strain or isolate": "NL4-3", "endpoint": "EC50", "read by": "luciferase", "result": "3.76 µM"}
{"structure": "COCc1nc(Nc2ccc(C#N)cc2)nc(Nc2c(C)cc(/C=C/C#N)cc2C)c1C(=O)N(C)CCN(C)C", "cells": "MT4 CMV-EGFP", "strain or isolate": "K103N + Y181C", "endpoint": "EC50", "result": "0.331 µM"}
{"structure": "CC(C)=CCOc1cc(NC(=S)c2ccoc2C)ccc1Cl", "cells": "CEM", "strain or isolate": "IIIB", "endpoint": "EC50", "changes": "RT-E138K", "read by": "syncytia", "result": "0.015 µM"}
{"structure": "CC1=C(C(=O)Nc2ccc(Cl)c(OCC=C(Cl)Cl)c2)SCCO1", "cells": "CEM", "strain or isolate": "HEPT-resistant (RT Y188H)", "endpoint": "EC50", "changes": "RT-Y188H", "read by": "syncytia", "result": "2 µg/mL"}